Compound potency records, mixed from different reports. Data source: NIAID ChemDB in PubChem.

Shared fields: target-level tests; species: HIV-1; target: Integrase

An empty or dashed field is not shown. a–b is a range or a potency band. Conditions beyond the fields shown may differ between rows. ICn: concentration for n% inhibition.

SMILES | method | read-out | mutations | result
CC(=O)Oc1ccc(/C=C/C(=O)Nc2cccc3c(S(=O)(=O)NCCc4cccc([N+](=O)[O-])c4)cccc23)cc1OC(C)=O | - | IC50 | - | >100 µg/mL
CC(=O)Nc1ccc(SSc2ccc(NC(C)=O)cc2C(N)=O)c(C(N)=O)c1 | - | IC50 | - | >100 µM
NCCC1C=Nc2ccccc21 | - | IC50 | - | 6.47 µM
CCOC(=O)/C=C/c1ccc2c(c1)c(=O)c(/C(O)=C/C(=O)C(=O)OCC)cn2Cc1ccc(F)cc1 | 3′ processing | IC50 | - | >300 µM
Cn1ccn2c(=O)c(O)c(-c3ncc(Cc4ccc(F)c(Cl)c4)s3)nc12 | strand transfer | IC50 | G140S/Q148H | 0.1–1 µM
Cc1cc(CNC(=O)c2nc3n(c(=O)c2O)CC2(CF)CCC3(N(C)C(=O)C(=O)N(C)C)CC2)ccc1F | radiometric | Ki | - | 0.0000024 µM
Cc1cc2nc3c4ccccc4n(CCN(C)C)c3nc2cc1C | - | IC50 | - | 2.4 µM
Cc1cn2c(=O)c(O)c(-c3ncc(Cc4ccc(Cl)cc4)s3)nc2s1 | strand transfer | IC50 | E92Q/N155H | 1–10 µM
O=[N+]([O-])c1ccc(CSc2nc3ccccc3s2)cc1 | strand transfer | IC50 | - | >1000 µM
Cc1nc2c(ccc3c(C)c(C)c(C)nc32)c(C)c1C | strand transfer | IC50 | - | >100 µM
Cc1ccc(NS(=O)(=O)c2cccc3c(NC(=O)/C=C/c4ccc(O)c(O)c4)cccc23)cc1 | - | IC50 | - | >100 µg/mL
CN(C)C(=O)C(=O)NC12CCC(N(C)C)(CC1)Cn1c2nc(C(=O)NCc2cccc(Cl)c2F)c(O)c1=O | radiometric | Ki | - | 0.000005 µM
O=C(NCc1ccco1)c1cn2c(c(O)c1=O)C(=O)N(Cc1ccc(F)cc1)CC2 | ELISA | IC50 | - | 0.01–0.1 µM
NS(=O)(=O)c1ccc(NC(=O)c2ccc(SSc3ccc(C(=O)Nc4ccc(S(N)(=O)=O)cc4)cc3)cc2)cc1 | - | IC50 | - | >100 µM
O=C(NCC(NC(=O)c1ccc(O)c(O)c1)C(=O)O)c1ccc(O)c(O)c1 | 3′ processing | IC50 | - | >10 µM
N#C/C(=C\c1ccc(O)c(O)c1)C(=O)NCCN1CCN(C(=O)/C(C#N)=C/c2ccc(O)c(O)c2)CC1 | strand transfer | IC50 | - | 5–10 µM
Cc1ccc2cc(-c3ccccc3)c3ccc(C)nc3c2n1 | 3′ processing | IC50 | - | >100 µM
Cn1ccn2c(=O)c(O)c(-c3ncc(Cc4ccc(Cl)c(Cl)c4)s3)nc12 | strand transfer | IC50 | E92Q/N155H | 0.1–1 µM
O=P(O)(O)C(CNCCc1ccccc1)P(=O)(O)O | 3′ processing / gel | IC50 | - | >100 µM
Cc1cccc(NS(=O)(=O)c2cccc3c(NC(=O)/C=C/c4ccc(O)c(O)c4)cccc23)c1C | - | IC50 | - | 19.8 µg/mL
O=c1ccn2ccn(Cc3cccc(Cl)c3O)c(=O)c2c1O | ELISA | IC50 | - | 0.01–0.1 µM
Cc1cn2c(=O)c(O)c(-c3ncc(Cc4ccc(F)c(Cl)c4)s3)nc2s1 | strand transfer | IC50 | G140S/Q148H | 1–10 µM
O=S(=O)(Nc1ccc(F)c(Cl)c1)c1cccc2cnccc12 | strand transfer | IC50 | - | 850 µM
CCOC(=O)c1nc(NC(=O)c2cc(NC(=O)c3cc(NC(=O)c4nc(NC(=O)CCCN)cn4C)cn3C)cn2C)cn1C | 3′ processing | IC50 | - | 33 µM
Cc1cc(CNC(=O)c2nc3n(c(=O)c2O)CC2(C(C)O)CCC3(NC(=O)C(=O)N(C)C)CC2)ccc1F | radiometric | Ki | - | 0.000002 µM
CN1C(=O)C(c2cc(Cl)c(O)c(Cl)c2)NC(=O)[C@@H]2NC(=O)C(c3cc(Cl)c(O)c(Cl)c3)NC(=O)[C@H](NC(=O)C(=O)c3cc(Cl)c(O)c(Cl)c3)Cc3c[nH]c4c(cccc34)-c3cc2cc(c3O)Oc2ccc(cc2)CC1C(=O)NC(C(=O)O)c1ccc(O)cc1 | - | IC50 | - | 0.4 µM
O=c1c(-c2ccccc2)cn2ccn(Cc3cccc(Cl)c3)c(=O)c2c1O | ELISA | IC50 | - | <0.01 µM
N#Cc1cc2cc(Sc3ccccc3)c([N+](=O)[O-])cc2n(O)c1=N | 3′ processing / gel | IC50 | - | >100 µM
CN(C)CCCC12CCC(NC(=O)C(=O)N(C)C)(CC1)c1nc(C(=O)NCc3cccc(Cl)c3F)c(O)c(=O)n1C2 | radiometric | Ki | - | 0.000008 µM
O=S(=O)(Cc1ccc(Br)cc1)c1nc2ccccc2s1 | strand transfer | IC50 | - | >1000 µM
O=C(/C=C/c1ccc(O)c(O)c1)Nc1cccc2c(S(=O)(=O)Nc3ccc(F)cc3)cccc12 | - | IC50 | - | 7.9 µg/mL
Cn1c(-c2nc(C(=O)NCc3ccc(F)cc3)c(O)c3ncccc23)cc(=O)n(C)c1=O | strand transfer | IC50 | - | 0.0275 µM
CN(C)CCCNC(=O)c1cc(NC(=O)c2cc(NC(=O)c3cc(NC(=O)CNC(=O)c4cc(NC(=O)c5cc(NC(=O)c6cc(NC(=O)CCCN)cn6C)cn5C)cn4C)cn3C)cn2C)cn1C | 3′ processing | IC50 | - | 0.75 µM
CC(C)(C)C(=O)c1cn2c(c(O)c1=O)C(=O)N(Cc1ccc(F)cc1)CC2(C)C | ELISA | IC50 | - | 0.01–0.1 µM
NC(Cc1ccc(Cl)c(Cl)c1)(P(=O)(O)O)P(=O)(O)O | 3′ processing / gel | IC50 | - | 6 µM
Cc1cc(=O)n(-c2cccc([N+](=O)[O-])c2)n1C(=O)c1ccco1 | 3′ processing | IC50 | - | >1000 µM
Cn1ccn2c(=O)c(O)c(-c3ncc(Cc4ccc(F)cc4)s3)nc12 | strand transfer | IC50 | E92Q/N155H | 0.1–1 µM
CCOC(=O)c1nc(NC(=O)c2cc(NC(=O)c3nc(NC(=O)CCCN)cn3C)cn2C)cn1C | 3′ processing | IC50 | - | 300 µM
O=C(/C=C/c1cc(O)c(O)c(O)c1)NCCCC[C@H](NC(=O)/C=C/c1cc(O)c(O)c(O)c1)C(=O)O | 3′ processing | IC50 | - | 0.81 µM
CC1(C)OCCn2c1nc(C(=O)NCc1cc(F)ccc1Cl)c(O)c2=O | strand transfer | IC50 | - | 0.02–0.1 µM
Cc1cn2c(=O)c(O)c(-c3ncc(Cc4ccc(Cl)c(Cl)c4)s3)nc2s1 | strand transfer | IC50 | - | 0.001–1 µM
Cc1cc(CNC(=O)c2nc3n(c(=O)c2O)CC2(c4ncc[nH]4)CCC3(NC(=O)C(=O)N(C)C)CC2)ccc1F | radiometric | Ki | - | 0.0000021 µM
O=S(=O)(Cc1cccc2cccnc12)c1nc2ccccc2s1 | strand transfer | IC50 | - | >1000 µM
O=P(O)(O)C(O)(Cc1ccc(Cl)c(Cl)c1)P(=O)(O)O | 3′ processing / gel | IC50 | - | 7 µM
O=c1c(-c2ccccc2O)cn2ccn(Cc3cccc(Cl)c3)c(=O)c2c1O | ELISA | IC50 | - | <0.01 µM
O=C(NCCCC[C@H](NC(=O)c1ccc(O)c(O)c1)C(=O)O)c1ccc(O)c(O)c1 | 3′ processing | IC50 | - | >10 µM
CC(=O)c1cc2cc([N+](=O)[O-])c([N+](=O)[O-])cc2nc1C | 3′ processing / gel | IC50 | - | >100 µM
O=C(O)CCc1ccc(O)cc1 | - | IC50 | - | >100 µM
Cc1cn2c(=O)c(O)c(C(=O)NCc3ccc(F)cc3)nc2s1 | strand transfer | IC50 | - | 1–10 µM
COC(=O)C(CCCCNC(=O)/C=C/c1ccc(O)c(O)c1)NC(=O)/C=C/c1ccc(O)c(O)c1 | 3′ processing | IC50 | - | <10 µM
CC(=O)Oc1ccc(/C=C/C(=O)Nc2cccc3c(S(=O)(=O)NCCc4ccccc4C)cccc23)cc1OC(C)=O | - | IC50 | - | >100 µg/mL
Cc1cc(=O)n(-c2ccccc2)n1C(=O)/C=C/c1ccco1 | strand transfer | IC50 | - | 650 µM
N#C/C(=C\c1ccc(O)c(O)c1)C(=O)c1ccc(O)c(O)c1 | disintegration | IC50 | - | 4.2 µM
Cc1cc(=O)n(-c2cccc(Cl)c2)n1C(=O)c1ccco1 | 3′ processing | IC50 | - | >1000 µM
O=C(/C=C/c1ccc(O)c(O)c1)Nc1cccc2c(S(=O)(=O)NCCc3ccccc3)cccc12 | - | IC50 | - | 4.5 µg/mL
N#C/C(=C\c1ccccc1)S(=O)(=O)/C(C#N)=C/c1ccc(O)c(O)c1 | strand transfer | IC50 | - | 1.2 µM
CN(C)C(=O)C(=O)NC12CCC(N3CCOCC3)(CC1)Cn1c2nc(C(=O)NCc2ccc(F)cc2)c(O)c1=O | radiometric | Ki | - | 0.000004 µM
Nc1ncnc2c1ncn2[C@@H]1C[C@H](CO)[C@H](O)[C@H]1O | strand transfer | IC50 | - | 33–43 µM
CC(C)(C)c1nc(C(=O)NCc2ccc(F)cc2)c(O)c(=O)n1CCCNS(=O)(=O)c1ccccc1 | strand transfer | IC50 | - | 20 µM
Cc1cc(CNC(=O)c2nc3n(c(=O)c2O)CC2(Cn4ccn(C)c4=S)CCC3(NC(=O)C(=O)N(C)C)CC2)ccc1F | radiometric | Ki | - | 0.0000022 µM
O=P(O)(O)C(CNc1ccc(I)cc1)P(=O)(O)O | 3′ processing / gel | IC50 | - | >100 µM
C=CCC(C(=O)O)c1c(-c2ccccc2)c2cc(Cl)ccc2[nH]c1=O | strand transfer | IC50 | - | >250 µM
CNC(=O)c1cn2c(c(O)c1=O)C(=O)N(Cc1ccc(F)c(F)c1)CC2 | ELISA | IC50 | - | 0.1–1 µM
O=C1C(=O)N(Cc2ccccc2Cl)c2ccccc21 | strand transfer | IC50 | - | 600 µM
Cn1ccn2c(=O)c(O)c(-c3ncc(Cc4ccc(Cl)cc4)s3)nc12 | strand transfer | IC50 | G140S/Q148H | 0.1–1 µM
N#C/C(=C\c1cc(O)c(O)c(O)c1)C(N)=O | strand transfer | IC50 | - | 5–10 µM
CN(C)CCCNC(=O)c1cc(NC(=O)c2cc(NC(=O)c3cc(NC(=O)CCCNC(=O)c4cc(NC(=O)c5cc(NC(=O)c6cc(NC(=O)CCCN)cn6C)cn5C)cn4C)cn3C)cn2C)cn1C | 3′ processing | IC50 | - | 53 µM
O=C1c2c(O)c(=O)c(-c3ccccn3)cn2CCN1Cc1ccc(F)c(Cl)c1 | ELISA | IC50 | - | <0.01 µM
Cc1cccc(CNC(=O)c2nc3n(c(=O)c2O)CC2(F)CCC3(NC(=O)C(=O)C(C)C)CC2)c1 | radiometric | Ki | - | 0.000003 µM
CNC(=O)c1cn2c(c(O)c1=O)C(=O)N(Cc1cccc(Cl)c1F)CC2 | ELISA | IC50 | - | 0.01–0.1 µM
Cn1ccn2c(=O)c(O)c(C(O)NCc3ccc(Cl)c(Cl)c3)nc12 | strand transfer | IC50 | Wild type | 0.1–1 µM

A second listing of 6 rows from above:

SMILES | method | read-out | mutations | result
Cc1cc(CNC(=O)c2nc3n(c(=O)c2O)CC2(Cn4ccn(C)c4=S)CCC3(NC(=O)C(=O)N(C)C)CC2)ccc1F | radiometric | Ki | - | 0.0000022 µM
O=C(/C=C/c1cc(O)c(O)c(O)c1)NCCCC[C@H](NC(=O)/C=C/c1cc(O)c(O)c(O)c1)C(=O)O | 3′ processing | IC50 | - | 0.81 µM
Cc1cc(CNC(=O)c2nc3n(c(=O)c2O)CC2(C(C)O)CCC3(NC(=O)C(=O)N(C)C)CC2)ccc1F | radiometric | Ki | - | 0.000002 µM
Cc1ccc(NS(=O)(=O)c2cccc3c(NC(=O)/C=C/c4ccc(O)c(O)c4)cccc23)cc1 | - | IC50 | - | >100 µg/mL
Cc1cccc(NS(=O)(=O)c2cccc3c(NC(=O)/C=C/c4ccc(O)c(O)c4)cccc23)c1C | - | IC50 | - | 19.8 µg/mL
Cc1cccc(CNC(=O)c2nc3n(c(=O)c2O)CC2(F)CCC3(NC(=O)C(=O)C(C)C)CC2)c1 | radiometric | Ki | - | 0.000003 µM